Reference: publication PMC12584642
The exact form of at least one protein or probe is not confirmed.

Molecular target: ArcA-P (phosphorylated ArcA) (Klebsiella pneumoniae W14) (UniProt A6TI15)
Experiment: EMSA
Conditions: ArcA phosphorylated with acetyl phosphate, poly IC competitor; 10 mM Tris-HCl pH 8.0, 1 mM EDTA, 1 mM DTT, 50 mM KCl, 1.5 mg/mL poly IC, 50 ug/mL BSA, 10% glycerol; recombinant protein; protein details: His6 (pET28a); label: none (ethidium bromide stain); probe letters rebuilt from the primers and the genome

AGGATGATCACCAGCATGCCCAACATGATGACCATCTTTAATCCGTTAAGTGTAATAATGGGTTTAGCCATAGGATCCCGACCTCAAACTTCCTTGCCTATTAACAGGTTGCGTTACATTAGCATAATGACGCTTTTTTGCAGAACAAACGCATTGAAGAAAAACCGCGGCGTAAAGAATTGCAAAGTCTTTGAATTAAATGTAGCACTATGCTACAAATCTACCTGTGTTTAACTACTGAGGACAATTTTCATCCGCACCGGACGAGAAGCAACACCGCGGATAATTGTAATTTTATGGACAATCAGTTCAGGATGTATATTTTAAATCACCCCGCAGTATCCCTCACTTTTTCCCGTTTTGCCGGCGAACAGCACTGGCATTCGGCGCTATAGTCACCTTCTTTCTGCCTGAGCTGGCGCCAAGCGCACAGCGATATCTACGTCAGAAATTTTCCTGTTTACGTCTCGCGTAAACGGTAATGGATTATATTCTCAAGCAGGAGAAGGGATCATGTTTTATTGGATTTTATTAGCTTTAGCAATTATTGCTGAAATTACCGGCACCTTGTCTA (double strand) [kpnEF promoter region fragment, 574 bp]
binding result: binds
